PubChem BioAssay AID504761, Drosophila RNAi Screening Center | 2011

- Assay: 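Genome-wide fly cell screen for genes dengue virus requires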 (primary screen)
- Cells: D.Mel-2 cells from Drosophila
- Reagent: long dsRNA against Drosophila genes
- Treatment: infection with dengue virus type 2; dose and infection time not stated
- Measured: 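Per well on two replicate plates, imaging gave the percent of cells positive for viral envelope protein, ranked by infection, and a nuclear count of cells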
- Direction: infection score: higher = more virus-infected cells
- Active means: 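Very low infection ranking in both replicate wells (chance probability at most 0.065), then a retest showing infection dropped 1.5-fold or more at p below 0.05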
- Meaning of the calls: active = confirmed: knock-down lowers infection; inactive = not picked or not confirmed
In all, the deposit lists about 22,000 reagents; below is a random part of those with a known target gene and a result. Of all reagents, 116 (0.52%) got an active call. 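Calls depend on retest data that are not deposited; infection was ranked per plate without normalising between plates; the unit of the infection score is not given.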 Names joined by + are all predicted targets of the reagent. Not all columns of the deposit are shown. Not given: the amount of reagent, the time to read-out.

predicted target	dsRNA	infection score, replicate 1	infection score, replicate 2	call
Mnn1	DRSC03368	2.07	25.1	inactive
Hpf1	DRSC12202	10.4	7.05	inactive
CheA75a	DRSC10807	12.5	10.4	inactive
CG30492 (retired record) + M7BP	DRSC05053	0.74	1.15	inactive
CG30492 (retired record) + M7BP	DRSC05054	1.6	0.58	inactive
CG30492 (retired record) + M7BP	DRSC06701	7.24	5.93	inactive
CG30492 (retired record) + M7BP	DRSC06816	6.97	3.38	inactive
CG30492 (retired record) + M7BP	DRSC26905	4.7	1.26	inactive
Tengl2	DRSC21968	1.69	2.09	inactive
Tengl2	DRSC29284	1.7	20.2	inactive
dachs	DRSC02072	4.28	8.34	inactive
dachs	DRSC02191	5.12	6.09	inactive
dachs	DRSC26121	14.2	1.3	inactive
dachs	DRSC28403	7.23	6.97	inactive
GEFmeso	DRSC06748	11.6	19.2	inactive
GEFmeso	DRSC06940	1.94	0.85	inactive
GEFmeso	DRSC21475	3.66	1.88	inactive
Tspo	DRSC00533	2.39	1.39	inactive
PIG-L	DRSC15577	2.22	1.71	inactive
PIG-L	DRSC24921	7.16	2.29	inactive
CG13678	DRSC10036	2.85	1.69	inactive
SmydA-7	DRSC07340	8.02	11.3	inactive

Part of the list above, set out differently.
predicted target | dsRNA | infection score, replicate 1 | infection score, replicate 2 | call
Tengl2 | DRSC29284 | 1.7 | 20.2 | inactive
dachs | DRSC02072 | 4.28 | 8.34 | inactive
dachs | DRSC02191 | 5.12 | 6.09 | inactive
dachs | DRSC26121 | 14.2 | 1.3 | inactive

Next results follow:
predicted target	dsRNA	infection score, replicate 1	infection score, replicate 2	call
CG9313	DRSC04540	21.5	14.9	inactive
CG9313	DRSC27041	11.2	7.78	inactive
alrm	DRSC14436	1.83	10.2	inactive
CG13876	DRSC08346	4.23	6.04	inactive
CG18477 + CG31780	DRSC01955	2.5	1.62	inactive
TotX	DRSC22206	1.44	0.54	inactive
TotX	DRSC29108		12.5	inactive
CG4951	DRSC15682	15.9	14.6	inactive
CG9119	DRSC08620	6.31	10.6	inactive
CG9119	DRSC25290	2.58	2.33	inactive
CG12617	DRSC02176	3.94	3.68	inactive
CG12617	DRSC28197	1.63	15.9	inactive
CG15177	DRSC12557	2.44	17.4	inactive
CG15177	DRSC24687	1.29	2.02	inactive
HP1D3csd	DRSC19548	2.24	0.91	inactive
CG1971	DRSC15406	3.41	0.69	inactive
CG1971	DRSC28390	4.41		inactive
